# Experimental data published in patent US20220332769A1.
# Molecular target: SARS CoV-1 spike on pseudotyped lentivirus (CoV-1 PVP) (SARS CoV-1) (UniProt P59594)
# Test: cell-based or functional assay
substance,measurement,value
Recombinant ACE2 protein (from UniProt Q9BYF1 18-740) (receptor),"IC50, CoV-1 pseudovirus microneutralization assay, 293T/ACE2 target cells",14.3 nM
